Results of unrelated studies side by side (data: NIAID ChemDB).

Common to all: growth or infection tests; organism: Candida albicans

Rows are shuffled and stem from different studies. Two numbers with a dash give a range or band. ECn: concentration that inhibits the pathogen or its effect by n%. A number after MIC or MFC names an inhibition level or a share of isolates.

N#Cc1c(-c2cccc(Cl)c2)cc(-c2cc3cc(F)ccc3oc2=O)nc1NS(=O)(=O)c1ccccc1 ; strain: MTCC 227 ; read by: turbidity ; measure: MIC ; result: 1000 µg/mL
COc1cc(NC(C)CCCNC(=O)CC(NC(=O)[C@@H](N)CCCN=C(N)N)C(=O)O)c2nc(C(C)(C)C)ccc2c1 ; read by: broth dilution ; measure: MIC ; result: >20 µg/mL
Cc1ccc(-n2c(SC(C)C(=O)Nc3c(C)n(C)n(-c4ccccc4)c3=O)nnc2-c2ccco2)cc1 ; strain: ATCC 10231 ; measure: MIC ; result: 32 µg/mL
Cc1ccccc1C(Cc1ccc(Cl)cc1Cl)Cn1ccnc1 ; measure: MIC ; result: 100 µg/mL
COc1ccc(Br)cc1/C=N/NC(=O)Cc1cccc(C)c1O ; read by: MTT ; measure: MIC ; result: >150 µM
Cc1c(NC(=O)CSc2nnc(-c3ccco3)n2-c2ccc(Cl)cc2)c(=O)n(-c2ccccc2)n1C ; strain: ATCC 10231 ; measure: MIC ; result: 16 µg/mL
CC(C)=CCCCCCNC1NCCC2c3ccccc3CCN12 ; strain: NFI0124 ; measure: MIC ; result: 32 µg/mL
Cc1c(NC(=O)C(C)Sc2nnc(-c3ccco3)n2-c2ccccc2)c(=O)n(-c2ccccc2)n1C ; strain: ATCC 10231 ; measure: MIC ; result: 16 µg/mL
CO ; measure: MIC80 ; result: >250 µg/mL
CC(C)CCCCCCNC1NCCC2c3ccccc3CCN12 ; strain: NFI0124 ; measure: MIC ; result: 8 µg/mL
CC(C)CCC(O)C12C[C@@H]3[C@H](C)CC[C@H]3C3(C=O)CC1C=C(C(C)C)[C@@]23C(=O)O ; measure: MIC ; result: >128 µg/mL
C[C@H]1[C@H](O)[C@@H](C)/C=C/C=C/C=C/C=C/C=C/C=C/C=C/[C@H](O[C@@H]2O[C@H](C)[C@@H](O)[C@H](N)[C@@H]2O)C[C@@H]2O[C@](O)(C[C@@H](O)C[C@@H](O)CC[C@H](O)[C@@H](O)C[C@@H](O)CC(=O)O[C@H]1C)C[C@H](O)[C@H]2C(=O)O ; strain: B311 (drug-resistant) ; measure: MIC ; result: 0.5 µg/mL
COc1cc(NC(C)CCCNC(=O)CC(NC(=O)[C@H](N)CCCN)C(=O)O)c2ncccc2c1 ; read by: broth dilution ; measure: EC50 ; result: >20 µg/mL
Clc1ccc(C(Cc2c(Cl)cccc2Cl)Cn2ccnc2)c(Cl)c1 ; measure: MIC ; result: 100 µg/mL
CCOC(=O)c1nc2cc(C(F)(F)F)ccc2nc1Nc1cc(OC)c(OC)c(OC)c1 ; measure: MIC ; result: 500 µg/mL
COc1cc(NC(C)CCCNC(=O)[C@H](CCCCN)NC(=O)[C@@H](N)CCCCN)c2nc(C(C)(C)C)ccc2c1 ; read by: broth dilution ; measure: EC50 ; result: >20 µg/mL
O=Nc1c(-c2cccc([N+](=O)[O-])c2)nc2ncccn12 ; measure: MIC ; result: 9 µg/mL
N=C(N)c1ccc(OCCCC(O)COc2ccc(C(=N)N)cc2)cc1 ; strain: 102.96 ; measure: MFC ; result: 12.5 µg/mL
CC(C)C1=CC2CC3(C=O)C4CC[C@@H](C)C4CC2(CCOC(=O)CC(C)(C)C)C13C(=O)O ; measure: MIC ; result: 0.06 µg/mL
C[C@H](n1nnc(CCN2CCN(C(c3ccccc3)c3ccccc3)CC2)n1)[C@](O)(Cn1cncn1)c1ccc(F)cc1F ; strain: V-01-191A-261 (resistant) ; measure: MIC ; result: 4 µg/mL
CCOC(C)=O ; measure: MIC80 ; result: >250 µg/mL
Clc1ccc(C(Cc2ccc(Cl)cc2Cl)Cn2ccnc2)cc1 ; measure: MIC ; result: 100 µg/mL
c1ccc(CO/N=C(/Cn2ccnc2)c2ccccc2)cc1 ; strain: 5M ; measure: MIC ; result: >128 µg/mL
COc1ccc(Br)cc1/C=N/NC(=O)Cc1ccc(C)cc1 ; read by: MTT ; measure: MIC ; result: >150 µM
COCCOCCOCCOCCOCCOCCNC(=O)[C@H]1[C@@H]2C[C@@H](O[C@@H]3O[C@H](C)[C@@H](O)[C@H](N)[C@@H]3O)/C=C/C=C/C=C/C=C/C=C/C=C/C=C/[C@H](C)[C@@H](O)[C@H](C)[C@H](C)OC(=O)C[C@H](O)C[C@H](O)[C@@H](O)CC[C@H](O)C[C@H](O)C[C@](O)(C[C@@H]1O)O2 ; strain: Isolate 92-1729 ; measure: MIC ; result: 3.03 µg/mL
Clc1ccc(/C(Cn2ccnc2)=N/OCc2ccccc2)c(Cl)c1 ; strain: Y0109 ; measure: MIC ; result: 32 µg/mL
N#Cc1c(-c2cccc(F)c2)cc(-c2cc3cc(F)ccc3oc2=O)nc1NS(=O)(=O)c1ccccc1 ; strain: MTCC 227 ; read by: turbidity ; measure: MIC ; result: 500 µg/mL
CC(=O)c1ccc(-c2nc3ncccn3c2N=O)cc1 ; measure: MIC ; result: 9 µg/mL
C[C@H](n1nnc(CCN2CCN(c3ccc(F)cc3)CC2)n1)[C@](O)(Cn1cncn1)c1ccc(F)cc1F ; strain: V-01-191A-261 (resistant) ; measure: MIC ; result: 2 µg/mL
COc1cc(NC(C)CCCNC(=O)[C@H](CCCN=C(N)N)NC(=O)[C@@H](N)CCCN=C(N)N)c2nc(C(C)(C)C)ccc2c1 ; read by: broth dilution ; measure: MIC ; result: >20 µg/mL
Clc1cc(Cl)c2c(c1)CCc1ccccc1C2n1ccnc1 ; strain: 35 isolates ; measure: Geometric mean MIC ; result: 0.05 µg/mL
Clc1ccc(/C(Cn2ccnc2)=N/OCc2ccccc2)cc1 ; strain: PR1 ; measure: MIC ; result: 32 µg/mL
Cc1c(NC(=O)CSc2nnc(-c3ccco3)n2-c2ccc(F)cc2)c(=O)n(-c2ccccc2)n1C ; strain: ATCC 10231 ; measure: MIC ; result: 16 µg/mL
CCOC(=O)c1cc(C)nc2sc3c(Cl)nnnc3c12 ; measure: MIC ; result: >100 µg/mL
N#Cc1c(-c2cccc([N+](=O)[O-])c2)cc(-c2cc3cc(F)ccc3oc2=O)nc1NS(=O)(=O)c1ccccc1 ; strain: MTCC 227 ; read by: turbidity ; measure: MIC ; result: 1000 µg/mL
COc1cc(NC(C)CCCNC(=O)CC(NC(=O)[C@H](N)CCCN)C(=O)O)c2nc(C(C)(C)C)ccc2c1 ; read by: broth dilution ; measure: MIC ; result: >20 µg/mL
Clc1ccc(C(Cc2ccc(Br)cc2)Cn2ccnc2)c(Cl)c1 ; measure: MIC ; result: 10 µg/mL
CCCCCCCCCCCCCCCC(=O)N[C@H]1CCCNC(=O)C2C[C@H](N)CN2C(=O)C(C(C)O)NC(=O)C(CCc2ccc(O)cc2)NC(=O)C2C[C@@H](O)CN2C(=O)C(C(C)O)NC1=O ; strain: ATCC 10231 ; measure: MIC ; result: 0.78 µg/mL
C[C@H](n1nnnc1CCN1CCN(c2ccccc2)CC1)[C@](O)(Cn1cncn1)c1ccc(F)cc1F ; strain: V-01-191A-261 (resistant) ; measure: MIC ; result: 8 µg/mL
COc1ccc(-c2cc(-c3cc4cc(F)ccc4oc3=O)nc(NS(=O)(=O)c3ccccc3)c2C#N)cc1 ; strain: MTCC 227 ; read by: turbidity ; measure: MIC ; result: 500 µg/mL
Cc1c(NC(=O)C(C)Sc2nnc(-c3ccco3)n2-c2ccc(Cl)cc2)c(=O)n(-c2ccccc2)n1C ; strain: ATCC 10231 ; measure: MIC ; result: 16 µg/mL
C[C@H]1[C@H](O)[C@@H](C)/C=C/C=C/C=C/C=C/C=C/C=C/C=C/[C@H](O[C@@H]2O[C@H](C)[C@@H](O)[C@H](N)[C@@H]2O)C[C@@H]2O[C@](O)(C[C@@H](O)C[C@@H](O)CC[C@H](O)[C@@H](O)C[C@@H](O)CC(=O)O[C@H]1C)C[C@H](O)[C@H]2C(=O)O ; strain: IAM4888 ; measure: MIC ; result: 0.4 µg/mL
COc1ccc(Br)cc1/C=N/NC(=O)Cc1cccc(Br)c1 ; read by: MTT ; measure: MIC ; result: >150 µM
CCCCCOc1ccc(-c2ccc(-c3ccc(C(=O)N[C@H]4CCCNC(=O)C5C[C@H](NC6CCNCC6)CN5C(=O)C(C(C)O)NC(=O)C(CCc5ccc(O)cc5)NC(=O)C5C[C@@H](O)CN5C(=O)C(C(C)O)NC4=O)cc3)cc2)cc1 ; strain: ATCC 62376 ; measure: MIC ; result: 0.39 µg/mL
Clc1nnnc2c1sc1ncccc12 ; measure: MIC ; result: 6.25–12.5 µg/mL
COc1ccc2c(c1)CCN1C(NCCCCCC=C(C)C)NCCC21 ; strain: NFI0124 ; measure: MIC ; result: 64 µg/mL
CCCCOc1ccccc1N1CCN(CCc2nnn(C(C)C(O)(Cn3cncn3)c3ccc(F)cc3F)n2)CC1 ; measure: MIC ; result: 0.5 µg/mL
CC(C)C1=CC2CC3(C=O)[C@@H]4CC[C@@H](C)[C@H]4CC2(C(O)CCC2CCCCC2)C13C(=O)O ; measure: MIC ; result: 0.5 µg/mL
COc1cc(NC(C)CCCNC(=O)[C@H](CCCN)NC(=O)[C@@H](N)CCCN)c2ncccc2c1 ; read by: broth dilution ; measure: EC50 ; result: >20 µg/mL
COc1ccc(-c2nc3ncccn3c2N=O)cc1 ; measure: MIC ; result: 65 µg/mL
Fc1ccc(/C(Cn2ccnc2)=N/OCc2ccccc2)cc1 ; strain: CA7 ; measure: MIC ; result: 128 µg/mL
COc1cc(NC(C)CCCNC(=O)[C@H](CCCCN)NC(=O)[C@@H](N)CCCCN)c2ncccc2c1 ; read by: broth dilution ; measure: MIC ; result: >20 µg/mL
C[C@H](n1nnnc1CCN1CCN(c2ccccn2)CC1)[C@](O)(Cn1cncn1)c1ccc(F)cc1F ; measure: MIC ; result: 4 µg/mL
Cc1ccc(C(C)C)cc1 ; strain: ATCC 10231 ; measure: MLC ; result: 0.16–0.32 µg/mL
CCOC(=O)c1c(-c2ccccc2)c2ccc(Cl)cc2oc1=O ; strain: ATCC 90028 ; read by: broth dilution / absorbance ; measure: MIC90 ; result: >100 µg/mL
CCCCCC12CCC(C(=O)N[C@H]3CCCNC(=O)C4C[C@H](N)CN4C(=O)C(C(C)O)NC(=O)C(CCc4ccc(O)cc4)NC(=O)C4C[C@@H](O)CN4C(=O)C(C(C)O)NC3=O)(CC1)CC2 ; strain: ATCC CCH442 ; measure: MIC ; result: 3.12 µg/mL
CCCC(O)C/C=C\C=C\C(=O)OC[C@H]1O[C@@H](O[C@@H]2[C@H](OC(=O)/C=C/C=C/CC(O)/C(C)=C/C=C/CCC(C)CC)[C@@H](O)[C@]3(OCc4cc(O)cc(O)c43)O[C@@H]2CO)[C@H](O)[C@@H](O)[C@H]1O ; strain: MY1750 ; measure: MIC ; result: 1 µg/mL
C[C@H](n1nnnc1CCN1CCN(c2ccccc2Cl)CC1)[C@](O)(Cn1cncn1)c1ccc(F)cc1F ; measure: MIC ; result: 4 µg/mL
O=c1cc(-c2ccccc2)c2ccc(Cl)cc2o1 ; strain: ATCC 90028 ; read by: broth dilution / absorbance ; measure: MIC90 ; result: >100 µg/mL
CCCCCOc1ccc(-c2ccc(-c3ccc(C(=O)N[C@H]4CCCNC(=O)[C@@H]5C[C@H](N)CN5C(=O)[C@H]([C@@H](C)O)NC(=O)[C@H](Cc5ccc(O)cc5)NC(=O)[C@@H]5C[C@@H](O)CN5C(=O)[C@H]([C@@H](C)O)NC4=O)cc3)cc2)cc1 ; strain: ATCC 10231 ; measure: MIC ; result: 0.2 µg/mL
COc1ccc2c(c1)CCN1C(NCCCCCCC(C)C)NCCC21 ; strain: NFI0124 ; measure: MIC80 ; result: 4 µg/mL
CCCCCOc1ccc(-c2ccc(-c3ccc(C(=O)N[C@H]4CCCNC(=O)[C@@H]5C[C@H](NC(=O)CCC(=O)O)CN5C(=O)[C@H]([C@@H](C)O)NC(=O)[C@H](CCc5ccc(O)cc5)NC(=O)[C@@H]5C[C@@H](O)CN5C(=O)[C@H]([C@@H](C)O)NC4=O)cc3)cc2)cc1 ; strain: ATCC 10231 ; measure: MIC ; result: 0.78 µg/mL
C[C@H](n1nnc(CCN2CCN(c3ccccc3Cl)CC2)n1)[C@](O)(Cn1cncn1)c1ccc(F)cc1F ; measure: MIC ; result: 4 µg/mL
CN[C@@H]1[C@H](O[C@@H]2OC[C@@H](O)[C@H](O)[C@H]2O)[C@@H](O)[C@H](O[C@H]2c3cc(C)c(C(=O)N[C@H](C)C(=O)O)c(O)c3-c3c(cc4c(c3O)C(=O)c3cc(OC)cc(O)c3C4=O)[C@@H]2O)O[C@@H]1C ; strain: 83-2-14 ; measure: MIC ; result: 12.5 µg/mL
CC(=O)c1ccc(-c2cn3cccnc3n2)cc1 ; measure: MIC ; result: 121 µg/mL
Cc1c(NC(=O)CSc2nnc(-c3ccco3)n2-c2ccc(Br)cc2)c(=O)n(-c2ccccc2)n1C ; strain: ATCC 10231 ; measure: MIC ; result: 16 µg/mL
CCCCCCCCCCCCCCCC(=O)NC(CCCCN)C(=O)NC(CCCCN)C(N)=O ; strain: 4890 ; read by: broth dilution ; measure: MIC ; result: 4 µg/mL
C[C@H](n1nnnc1CCN1CCN(c2cccc(Cl)c2)CC1)[C@](O)(Cn1cncn1)c1ccc(F)cc1F ; strain: V-01-191A-261 (resistant) ; measure: MIC ; result: 4 µg/mL
Clc1ccc(/C(Cn2ccnc2)=N\OCc2ccccc2)cc1 ; strain: PR1 ; measure: MIC ; result: 64 µg/mL